Laboratory results published in patent publication US8735129B2, “Ginsenoside glycosidase derived from the genus Terrabacter, and use thereof” (Korea Research Institute of Bioscience and Biotechnology, priority 2009, dated 2014).

Format: biochemical
Conditions: sodium phosphate buffer
Description: The thermo-dependence of the activity was assayed in 50 mM potassium phosphate buffer at various temperatures ranging from 4 to 90° C. Thermostability was tested by incubating aliquots of the enzyme in 50 mM potassium phosphate buffer for 30 minutes at different temperatures. After cooling the sample on ice for 10 minutes, residual activity was determined by a standard analysis;
The pH effect on the enzymatic activity was measured using 2.0 mM pNPGlc in the following buffer (50 mM):
Buffer: pH range of 2 to 10: KCl—HCl (pH 2), glycine-HCl (pH 3), sodium acetic acid (pH 4 and 5), sodium phosphate (pH 6 and 7), Tris-HCl (pH 8 and 9) and glycine-sodium hydroxide (pH 10).
The enzyme was incubated in each of the above mentioned buffers at 4° C. for 24 hours, and then pHPGlc was analyzed in 50 mM potassium buffer to measure the enzymatic stability according to pH change. The activity was measured by the above mentioned method.
The results were represented as an activity probability obtained at the optimum pH.
The temperature-dependent activity in the 50 mM potassium phosphate buffer was analyzed within the temperature range of 4-90° C. using 2.0 mM pNPGlc at the optimum pH for 5 minutes. […] The sample was cooled in ice for 10 minutes, and the residual activity was measured by pNPGlc analysis.

B1: Bgl-gyp17: recombinant ginsenoside glycosidase from Terrabacter Gsoil 3082, SEQ ID NO. 1, 589 residues (protein, listed as Terrebacter sp.)
chain: MDPYEDPRLPVEVRVEDLLGRLSLEEKVGLMFQTVIEAGSDGTVLEHPGSISKSPTSTVVLDKHLTHFNVHALDDPRMAARWSNALQALAERTPHGIPVTVSTDPRHAFIENVGVSFSAGAFSQWPEPLGLAALRDADAVRRFADIARQEYVAVGIRAALHPTLDLATEPRWARQAGTFGQDPDLVTELGVAYLKGFQGDSLGSGSVACTSKHFPGGGPQKDGEDAHFPYGREQVYPGGRFADHLKPFPPIIEAGTAGIMPYYGMPVDLVVDGVEIEPIGFGYNKQVVTGLLREKLGYDGVVVTDWELVNDNHVGDQVLPARAWGVEHLDPHGRMELILEAGADQFGGEECVEILLDLVAQGRVTEARVDESARRILAVKFRLGLFENPYVDEDEAAATVGRDDFREEGYAAQARSVTVLHHEGGRLPLEHGLRIYAEQVSPEAVARHGKLVDRPEDADVAVVRLTAPFDPRSDLFLESWFHQGSLDFPPGLVARLERIAAVCPLVVDVVLDRPAVLTPLLRFASAVVGSFGSCDDALLDALTGTIAPVGRLPFDLPRSMDQVRAHGEDVPGYDDPLFPFGHGLRLDTE
modifications: PEPTIDE (1)..(589) amino acid sequence of Bgl-gyp17
notes: 1, 589 residues
temperature of maximum activity: 45 °C
